# Data taken from patent US20060035889A1, “Treatment for methamphetamine addiction and reduction of methamphetamine use using serotonin antagonists” (priority 2004, published 2006).
# Test system: METH-sensitized rats
# Test: Reversal of METH-induced behavioral sensitization by 5-HT2A/2C antagonists (motor activity after acute METH challenge)
# Details: rat, in vivo
# Text: Automation of observational evaluations was accomplished using computerized small animal monitors (AccuScan Instr. Inc., Columbus, Ohio). […] One feature of drug-induced behavioral sensitization is heterogeneity of motor responses and the AccuScan monitors quantify numerous behavioral indices. This is a critical point for the motor profile is exquisitely related to METH dose, the drug history of the rat and observation time. After 3- or 31-days of withdrawal from repeated METH injections, rats were allowed to achieve baseline motor activity with a 30 min habituation period, challenged with 1 mg/kg sc METH and monitored for 90 min. As shown in FIGS. 1a-b, a “sensitized” motor response was clearly expressed in the METH-pretreatment group to the METH challenge at the 3-day withdrawal period for both Horizontal Activity and Stereotypy Counts (data not shown) and with slight early effects on Vertical Movements.
# Multiple 5-HT2A/2C antagonists with differing pharmacological profiles were tested for their ability to ameliorate METH-induced behavioral sensitization when administered after sensitization has developed. […]. The doses were selected based on the antagonists' ability to block 5-HT2A- and 5-HT2C-mediated activity and their pharmacokinetic profiles. […]
smiles,measurement,value
CN1CCN2c3ccccc3Cc3ccccc3C2C1 (centres unmarked) [mianserin],horizontal and vertical activity endpoints in METH-pretreated rats,further reduced
same,"total distance traveled, ambulatory time, vertical activity (early) and vertical time (early) indices of METH-induced sensitized behaviors",attenuated
